{"source": "PubChem BioAssay AID504423", "about": "(Broad Institute, 2011)", "note": "Only a part is listed here, and it is no random draw. Active and inactive are the calls of the source.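 The calls were made as follows: active = highest replicate inhibition at or above 60% at 9 µM, even if other replicates fall short; inactive = all replicates below 60% inhibition.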", "data": [{"test_system": "Kaposi's sarcoma herpesvirus LANA C-terminal domain (residues 932-1162) DNA binding", "test": "blockers of LANA C-terminal domain DNA interaction – biochemical, fluorescence polarization, FAM-LBS DNA, MBP-C-LANA, single point, primary screen (AID 504423);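 also: 0% = neutral control wells and 100% = 4 µM acridine orange control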", "conditions": "at 9 µM, hits give high values", "values": [{"smiles": "CC(=O)Nc1ccc([As](=O)(O)O)c(O)c1", "inhibition": "inactive: -0.438%"}, {"smiles": "O=P(Nc1nccs1)(c1ccccc1)c1ccccc1", "inhibition": "inactive: 0.213%"}, {"smiles": "CC(C)C(=O)NC(Sc1ccccc1)C(Cl)(Cl)Cl", "note": "(configuration not stated)", "inhibition": "inactive: 1.21%"}, {"smiles": "c1nnnn1CCn1cnnn1", "inhibition": "inactive: 0.709%"}, {"smiles": "CN(C)C1(CNC(=O)c2ccc(Cl)c(S(N)(=O)=O)c2)CCCCC1", "inhibition": "inactive: -1.06%"}, {"smiles": "O=P(Nc1ccccn1)(c1ccc(Br)cc1)c1ccc(Br)cc1", "inhibition": "inactive: 1.71%"}, {"smiles": "COc1ccc(N)c([N+](=O)[O-])c1[N+](=O)[O-]", "inhibition": "inactive: 15%"}, {"smiles": "C[C@H]1OP(=O)(Oc2ccccc2)[C@H](O)[C@H](O)[C@H]1N=[N+]=[N-]", "note": "(some centres not stated)", "inhibition": "inactive: -0.608%"}, {"smiles": "O=P(Nc1nc2ccccc2s1)(c1ccccc1)c1ccccc1", "inhibition": "inactive: -0.465%"}, {"smiles": "O=[As](O)(c1ccccc1)c1ccc(O)cc1", "inhibition": "inactive: 0.685%"}, {"smiles": "O=[N+]([O-])c1ncn(CCn2cnc([N+](=O)[O-])n2)n1", "inhibition": "inactive: 0.303%"}, {"smiles": "CC(=O)NC(SC(=S)N(C)C)C(Cl)(Cl)Cl", "note": "(configuration not stated)", "inhibition": "inactive: 1.23%"}, {"smiles": "O=[N+]([O-])c1ccc(O)c(/C=N/Nc2ccc([N+](=O)[O-])cc2[N+](=O)[O-])c1", "inhibition": "inactive: 8.29%"}, {"smiles": "O=C(OC1CN2CCC1CC2)c1cccc(Cl)c1", "note": "(configuration not stated)", "inhibition": "inactive: -0.853%"}, {"smiles": "C(Cc1nn[nH]n1)Cc1nn[nH]n1", "inhibition": "inactive: -1.13%"}, {"smiles": "Nc1ccc([As](=O)(O)c2ccc([N+](=O)[O-])cc2)cc1", "inhibition": "inactive: 0.344%"}, {"smiles": "Cc1ccc(C(=O)OC2CN3CCC2CC3)cc1", "note": "(configuration not stated)", "inhibition": "inactive: -0.297%"}, {"smiles": "CC1CCC(C(C)C)C(OP(=O)(Nc2ccccn2)c2ccccc2)C1", "note": "(configuration not stated)", "inhibition": "inactive: 1.77%"}, {"smiles": "Cc1nn(-c2ccccc2)c2c1P(=O)(N1CCOCC1)N(C)C(c1ccccc1)=N2", "note": "(configuration not stated)", "inhibition": "inactive: -0.998%"}, {"smiles": "CN(C)C1(CNC(=O)c2ccc(S(C)(=O)=O)cc2)CCCCC1", "inhibition": "inactive: 0.568%"}, {"smiles": "CCCC1OP(=O)(Nc2ccccc2)OCC1CC", "note": "(configuration not stated)", "inhibition": "inactive: -0.583%"}, {"smiles": "O=C(/C=C/c1ccccc1)OC1CN2CCC1CC2", "note": "(configuration not stated)", "inhibition": "inactive: 0.367%"}, {"smiles": "O=P1(Nc2ncccn2)COc2ccccc2OC1", "inhibition": "inactive: -0.635%"}, {"smiles": "Nc1cccc([As](=O)(O)c2ccccc2)c1", "inhibition": "inactive: 3.3%"}, {"smiles": "O=[As](O)(c1cccs1)c1cccs1", "inhibition": "inactive: -2.31%"}, {"smiles": "Cc1ccc(OCC(=O)OC2CN3CCC2CC3)cc1", "note": "(configuration not stated)", "inhibition": "inactive: 0.596%"}, {"smiles": "NS(=O)(=O)c1cccc(NC(=O)COC(=O)C(O)(c2ccccc2)c2ccccc2)c1", "inhibition": "inactive: 1.03%"}, {"smiles": "O=P1(Nc2ccc(Br)cn2)COc2ccccc2OC1", "inhibition": "inactive: 0.383%"}, {"smiles": "CCOP(=O)(NC(=NC(C)c1ccccc1)NC(C)c1ccccc1)OCC", "note": "(configuration not stated)", "inhibition": "inactive: -2.04%"}, {"smiles": "CCC1=CC2Cc3nc4ccc(Cl)cc4c(N)c3C(C1)C2", "note": "(configuration not stated)", "inhibition": "inactive: -2.21%"}, {"smiles": "O=P1(Nc2ccccn2)COc2ccccc2OC1", "inhibition": "inactive: 0.571%"}, {"smiles": "CCOP(=O)(Nc1ccc(C)cn1)OCC", "inhibition": "inactive: -0.755%"}, {"smiles": "CC(C)(C)C(=O)NC(Sc1ncccn1)C(Cl)(Cl)Cl", "note": "(configuration not stated)", "inhibition": "inactive: -0.794%"}, {"smiles": "Clc1n[nH]nc1-c1nn[nH][15n]1", "inhibition": "inactive: -1.45%"}, {"smiles": "CN(C(=O)Cc1ccc(Cl)c(Cl)c1)[C@@H]1CCCC[C@H]1N1CCCC1", "inhibition": "inactive: 1.13%"}, {"smiles": "CC(C)/C=N\\N=C(\\N)N[N+](=O)[O-]", "inhibition": "inactive: 0.31%"}, {"smiles": "CC1(CBr)Cn2c(nc3ccccc3c2=O)S1", "note": "(configuration not stated)", "inhibition": "inactive: -0.296%"}, {"smiles": "O=C(OC1CN2CCC1CC2)c1ccc(Cl)cc1", "note": "(configuration not stated)", "inhibition": "inactive: -1.3%"}, {"smiles": "CS(=O)(=O)c1ccc(Cl)c(NC(=O)COC(=O)C(O)(c2ccccc2)c2ccccc2)c1", "inhibition": "inactive: 0.798%"}, {"smiles": "O=[As](O)(O)c1cccnc1", "inhibition": "inactive: -1.62%"}, {"smiles": "COc1cc(C(=O)NCC2(N3CCOCC3)CCCCC2)cc(Cl)c1OC(C)C", "inhibition": "inactive: 1.77%"}, {"smiles": "Cc1cccc(OCC(=O)OC2CN3CCC2CC3)c1", "note": "(configuration not stated)", "inhibition": "inactive: 0.828%"}, {"smiles": "O=[As](O)(c1cccc(O)c1)c1cccc(O)c1", "inhibition": "inactive: 1.36%"}, {"smiles": "Nc1cccc2c([As](=O)(O)O)cccc12", "inhibition": "inactive: -2.63%"}, {"smiles": "Cc1ccc(NCCc2c([N+](=O)[O-])cc([N+](=O)[O-])cc2[N+](=O)[O-])cc1", "inhibition": "inactive: -1.04%"}, {"smiles": "CCCOP(=S)(Nc1nc(N)cc(=O)[nH]1)OCCC", "inhibition": "inactive: 4.24%"}, {"smiles": "CCOP(=O)(Nc1cccc2ccccc12)OCC", "inhibition": "inactive: 0.376%"}, {"smiles": "COc1cc(C2NCCC3(OCCO3)C2(C)C)cc(OC)c1OC", "note": "(configuration not stated)", "inhibition": "inactive: 0.992%"}, {"smiles": "O=P(Nc1nccs1)(Oc1ccccc1)Oc1ccccc1", "inhibition": "inactive: 0.785%"}, {"smiles": "O=P(Nc1nccs1)(c1ccccc1)c1nc2ccccc2s1", "note": "(configuration not stated)", "inhibition": "inactive: 3%"}, {"smiles": "CCOP1(=S)c2c(C)nn(CCC#N)c2N=C(c2ccccc2F)N1C", "note": "(configuration not stated)", "inhibition": "inactive: 2.22%"}, {"smiles": "CS(=O)(=O)c1cc([N+](=O)[O-])c2no[n+]([O-])c2c1", "inhibition": "inactive: 2.4%"}, {"smiles": "O=C(O)COc1ccc([As](=O)(O)O)cc1[N+](=O)[O-]", "inhibition": "inactive: -0.796%"}, {"smiles": "Nc1ccccc1[As](=O)(O)c1ccccc1", "inhibition": "inactive: 1.3%"}, {"smiles": "NC(=O)Nc1ccc([As](=O)(O)O)cc1", "inhibition": "inactive: 0.486%"}, {"smiles": "CCOP1(=S)c2c(C)nn(CCC#N)c2N=C(c2ccc(F)cc2)N1C", "note": "(configuration not stated)", "inhibition": "inactive: -0.853%"}, {"smiles": "CN(C(=O)Cc1ccccc1)[C@@H]1CC[C@]2(CCCO2)C[C@H]1N1CCCC1", "inhibition": "inactive: -2.44%"}, {"smiles": "N#CCCN(C(=O)COC(=O)C(O)(c1ccccc1)c1ccccc1)c1ccc(F)cc1", "inhibition": "inactive: -0.513%"}, {"smiles": "CN(C(=O)Cc1ccc(Cl)c(Cl)c1)[C@H]1CC[C@@]2(CCCO2)C[C@@H]1N1CCCC1", "inhibition": "inactive: -1.81%"}, {"smiles": "O=[N+]([O-])c1ccc2c(c1)nnn2O", "inhibition": "inactive: -2.38%"}, {"smiles": "CN(C)C(=O)c1cc([N+](=O)[O-])cc2c1-c1c(cc([N+](=O)[O-])cc1[N+](=O)[O-])C2=O", "inhibition": "inactive: 1.36%"}, {"smiles": "O=[N+]([O-])c1ccc(-c2cc([N+](=O)[O-])c(O)c([N+](=O)[O-])c2)cc1", "inhibition": "inactive: 1.02%"}, {"smiles": "COc1cc(C(=O)NCC2(N3CCOCC3)CCCCC2)ccc1OCC(C)C", "inhibition": "inactive: 0.324%"}, {"smiles": "C[As](=O)(O)c1cccc(C(=O)O)c1", "inhibition": "inactive: -1.69%"}, {"smiles": "O=[As](O)(c1ccc(O)cc1)c1ccccc1O", "inhibition": "inactive: -5.11%"}, {"smiles": "Cc1ccc(OP(=O)(Nc2ccc([N+](=O)[O-])cn2)Oc2ccc(C)cc2)cc1", "inhibition": "inactive: 2.54%"}, {"smiles": "Cc1ccc2nc3c(c(C)c2c1)CC(C(Cl)Cl)S3", "note": "(configuration not stated)", "inhibition": "inactive: 2.04%"}, {"smiles": "ClCCSc1nnc(-c2cccnc2)o1", "inhibition": "inactive: -0.333%"}, {"smiles": "COC(=O)C1(C)COP(=O)(N2CCCCCC2)OC1", "note": "(configuration not stated)", "inhibition": "inactive: -0.852%"}, {"smiles": "CC(C)c1ccc(OP(=O)(Nc2ccccn2)Oc2ccccc2F)cc1", "note": "(configuration not stated)", "inhibition": "inactive: -1.4%"}, {"smiles": "O=[N+]([O-])c1cc([N+](=O)[O-])c(-c2ccn[nH]2)s1", "inhibition": "inactive: 0.28%"}, {"smiles": "CC(C)NC(=O)NP(=O)(Oc1ccccc1)Oc1ccccc1", "inhibition": "inactive: 1.7%"}, {"smiles": "O=C(OC1CN2CCC1CC2)c1cccc2[nH]cnc12", "note": "(configuration not stated)", "inhibition": "inactive: 1.19%"}, {"smiles": "CCN(CC)C(=S)SC(NC=O)C(Cl)(Cl)Cl", "note": "(configuration not stated)", "inhibition": "inactive: -0.247%"}, {"smiles": "Cc1c2c(nc3ccccc13)SC(C(Cl)Cl)C2", "note": "(configuration not stated)", "inhibition": "inactive: -0.623%"}, {"smiles": "Cc1cc(=O)[nH]c(N[N+](=O)[O-])n1", "inhibition": "inactive: -1.66%"}, {"smiles": "O=C(OC1CN2CCC1CC2)C12CC3CC(CC(C3)C1)C2", "note": "(configuration not stated)", "inhibition": "inactive: -0.0656%"}, {"smiles": "O=P1(N(CCCl)CCCl)OCCCN1CCCl", "note": "(configuration not stated)", "inhibition": "inactive: -0.193%"}, {"smiles": "O=P1(N(CCCl)CCCl)Nc2ccccc2N1", "inhibition": "inactive: 1.46%"}, {"smiles": "COc1cc(I)ccc1[As](=O)(O)O", "inhibition": "inactive: -0.627%"}, {"smiles": "COc1ccc2nc(NP(=O)(c3ccccc3)c3ccccc3)sc2c1", "inhibition": "inactive: 0.0677%"}, {"smiles": "O=[N+]([O-])c1cc(Oc2ccc([N+](=O)[O-])cc2C(F)(F)F)cc([N+](=O)[O-])c1", "inhibition": "inactive: 2.5%"}, {"smiles": "COc1ccc(N/C(=N/P(=O)(N2CCOCC2)N2CCOCC2)N2CCOCC2)cc1", "inhibition": "inactive: 2.21%"}, {"smiles": "COP1(=S)c2c(C)nn(CCC#N)c2N=C(c2ccc(F)cc2)N1C", "note": "(configuration not stated)", "inhibition": "inactive: 1.32%"}, {"smiles": "O=C(Nc1ccncc1[N+](=O)[O-])c1ccc([N+](=O)[O-])cc1[N+](=O)[O-]", "inhibition": "inactive: -1.79%"}, {"smiles": "O=C(COc1ccccc1)OC1CN2CCC1CC2", "note": "(configuration not stated)", "inhibition": "inactive: 1.26%"}, {"smiles": "O=C(OC1CN2CCC1CC2)c1cccc([N+](=O)[O-])c1", "note": "(configuration not stated)", "inhibition": "inactive: 0.00816%"}, {"smiles": "CCOC(=O)c1ccc(NC(=O)C(C)(CCl)SC)cc1", "note": "(configuration not stated)", "inhibition": "inactive: 0.807%"}, {"smiles": "CCC(C)N(CC(C)C)C(=S)SC(NC(C)=O)C(Cl)(Cl)Cl", "note": "(configuration not stated)", "inhibition": "inactive: -0.253%"}, {"smiles": "CCOC(=O)Nc1ccc([As](=O)(O)O)c(O)c1", "inhibition": "inactive: -1.21%"}, {"smiles": "CC1CCNP(=O)(N(CCCl)CCCl)O1", "note": "(configuration not stated)", "inhibition": "inactive: 0.144%"}, {"smiles": "Cc1cc(SC(NC(=O)c2ccccc2)C(Cl)(Cl)Cl)nc(C(C)C)n1", "note": "(configuration not stated)", "inhibition": "inactive: -0.254%"}, {"smiles": "CCCCOc1ccc(C(=O)NCC2(N3CCCCC3)CCCCC2)cc1OC", "inhibition": "inactive: -0.371%"}, {"smiles": "CCOC(=O)Nc1cccc([As](=O)(O)O)c1", "inhibition": "inactive: 0.0562%"}, {"smiles": "Cc1cc(SC(NC=O)C(Cl)(Cl)Cl)ncn1", "note": "(configuration not stated)", "inhibition": "inactive: -0.79%"}, {"smiles": "O=P(Nc1ccccn1)(c1cccc2ccccc12)c1cccc2ccccc12", "inhibition": "inactive: -0.733%"}, {"smiles": "O=[N+]([O-])c1ccc(Nc2ccc(Oc3ccc([N+](=O)[O-])cc3[N+](=O)[O-])cc2)c([N+](=O)[O-])c1", "inhibition": "inactive: -0.0947%"}]}]}
